Source: the supplement of paper PMC9931576
Human monoclonal antibodies against the spike receptor-binding domain (heavy:light variable regions). IC50 against pseudoviruses bearing the spike of naturally observed variants; lower = stronger; >10 µg/ml means not reached at the top dose. No active / inactive call. The stated detection limit is 0.0005 µg/ml; values near or below 0.001 µg/ml lie at the floor of the assay.

B1: BD58-0483 (protein)
chain 1: QVQLQESGPGLVKPSQTLSLTCTVSGGSISSGGYYWSWIRQHPGKGLEWIGYIYNSGSTYYNPSLKSRVTISVDTSKNQFSLKLSSVTAADTAVYYCARGVDSSWFGYFDLWGRGTLVTVSS
chain 2: QFALTQPASVSGSPGQSITISCTGTSSDFGGYNYVSWYQQHPGKAPKLMIYDISNRPSGVSNRFSGSKSGNTASLTISGLQAEDEADYFCSSYTSSTTPCVVFGGGTEVTVL
B2: BD58-0511 (protein)
chain 1: EVQLVESGGGLVQPGGSLRVSCAASGFTFSSFGMNWVRQAPGKGLEWVSYISSSSSTIYYADSVKGRLTISRDNARKSLYLQMNSLKAEDTAVYYCARGGLLGIAVAGLAPFDYWGQGTLVTVSS
chain 2: DIQMTQSPSSLSASVGDRVTITCQASQDIDNFLNWYQQKPGKAPQLLIVDASDLETGVPSRFSGSGSGTEFTFTINSLQPEDVATYFCQQYTDLPLTFGGGTKVEIK
B3: BD58-0488 (protein)
chain 1: EVQLVESGGGLVQPGGSLRLSCAASGFTVDSNYMNWVRQAPGKGLELVSLVYSGGNTYYADSVKDRFTISRDNSKNTLYLQMNSLRAEDTAMYYCARGDLELFVWGQGTLVTVSS
chain 2: DIQMTQSASSLSASVGDRVTITCRASQSISSYLNWYQQKPGKAPKLLIYAASSLHSGVPSRFSGSGSGTDFTLTISSLQPEDFATYYCQQSYTSPRLTFGGGTKVEIK
B4: BD58-0455 (protein)
chain 1: EVQLVESGGGLVQPGGSLRLSCAASGFTFSSYWMHWVRQAPGKGLVWVSRINSDGSRTSYADSVKGRFTISRDNAKNTLYLQMNSLRAEDTAVYYCARDLIMTTETIEGRDYWGQGTLVTVSS
chain 2: NFMLTQPHSVSESPGKTVTISCTGSSGSIANNYVQWYQQRPGSAPTTVIYEDNQRPSGVPDRFSGSIDSSSNSASLTISGLKTEDEADYYCQSYDNSDWVFGGGTKLTVL
B5: BD58-0513 (protein)
chain 1: EVQLVQSGAEVKKPGESLKISCKASGYNFTNYWIGWVRQMPGKGLEWMGIIYPGDSDTRYSPSLQSQVTISADKSIRTAYLQWTSLKASDTAMYYCARVWVAVSMTTADYFDYWGQGTLVTVSS
chain 2: DIQLTQSPSSLSASVGDRVTITCRASQTISRYLNWYQQKQGKAPKVLIYAASSLQSGVPSRFSGRGSGTDFTLTISTLQPEDFATYYCQQSYSTLYTFGQGTKLEIK

Molecular target: SARS-CoV-2 Omicron BA.1 spike pseudovirus
Assay: pseudovirus neutralization IC50; higher = weaker neutralization
Description: (§1)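 Single-round VSV luciferase pseudovirus mixed with antibody dilutions for 1 h and put on Huh-7 cells for about a day; IC50 from the dose curve.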

Point of comparison: B3, “pseudovirus neutralization IC50” value 0.0582 µg/mL. Against it:
- B1 — 4.9-fold higher, 0.287 µg/mL
- B2 — within 1.5-fold, 0.0793 µg/mL
- B4 — higher, > 10 µg/mL
- B5 — higher, > 10 µg/mL

Molecular target: SARS-CoV-2 Omicron BA.2 spike pseudovirus
Assay: as above
Description: as §1

Point of comparison: B1, “pseudovirus neutralization IC50” value 0.0118 µg/mL. Against it:
- B2 — 7.5-fold higher, 0.0882 µg/mL
- B3 — 5.7-fold lower, 0.00206 µg/mL
- B4 — higher, > 10 µg/mL
- B5 — 18-fold lower, 0.000655 µg/mL

Molecular target: SARS-CoV-2 Omicron BA.2.75 spike pseudovirus
Assay: as above
Description: as §1

Point of comparison: B1, “pseudovirus neutralization IC50” value 0.155 µg/mL. Against it:
- B2 — higher, > 10 µg/mL
- B3 — higher, > 10 µg/mL
- B4 — higher, > 10 µg/mL
- B5 — 1.6-fold lower, 0.0971 µg/mL

Molecular target: SARS-CoV-2 Omicron BA.2.75.2 spike pseudovirus
Assay: as above
Description: as §1

Point of comparison: B5, “pseudovirus neutralization IC50” value 0.0986 µg/mL. Against it:
- B1 — 2.5-fold higher, 0.249 µg/mL
- B2 — higher, > 10 µg/mL
- B3 — higher, > 10 µg/mL
- B4 — higher, > 10 µg/mL

Molecular target: SARS-CoV-2 Omicron BA.5 spike pseudovirus
Assay: as above
Description: as §1

Point of comparison: B5, “pseudovirus neutralization IC50” value 0.00122 µg/mL. Against it:
- B1 — higher, > 10 µg/mL
- B2 — higher, > 10 µg/mL
- B3 — higher, > 10 µg/mL
- B4 — higher, > 10 µg/mL

Molecular target: SARS-CoV-2 Omicron BM.1.1.1 spike pseudovirus
Assay: as above
Description: as §1

Point of comparison: B5, “pseudovirus neutralization IC50” value 0.075 µg/mL. Against it:
- B1 — higher, > 10 µg/mL
- B2 — higher, > 10 µg/mL
- B3 — higher, > 10 µg/mL
- B4 — higher, > 10 µg/mL

Molecular target: SARS-CoV-2 Omicron BQ.1.1 spike pseudovirus
Assay: as above
Description: as §1

Point of comparison: B5, “pseudovirus neutralization IC50” value 0.0307 µg/mL. Against it:
- B1 — higher, > 10 µg/mL
- B2 — higher, > 10 µg/mL
- B3 — higher, > 10 µg/mL
- B4 — higher, > 10 µg/mL

Molecular target: SARS-CoV-2 Omicron BR.2 spike pseudovirus
Assay: as above
Description: as §1

Point of comparison: B5, “pseudovirus neutralization IC50” value 0.115 µg/mL. Against it:
- B1 — higher, > 10 µg/mL
- B2 — higher, > 10 µg/mL
- B3 — higher, > 10 µg/mL
- B4 — higher, > 10 µg/mL

Molecular target: SARS-CoV-2 Omicron CA.1 spike pseudovirus
Assay: as above
Description: as §1

Point of comparison: B5, “pseudovirus neutralization IC50” value 0.0778 µg/mL. Against it:
- B1 — higher, > 10 µg/mL
- B2 — higher, > 10 µg/mL
- B3 — higher, > 10 µg/mL
- B4 — higher, > 10 µg/mL

Molecular target: SARS-CoV-2 Omicron XBB spike pseudovirus
Assay: as above
Description: as §1

Point of comparison: B5, “pseudovirus neutralization IC50” value 0.135 µg/mL. Against it:
- B1 — higher, > 10 µg/mL
- B2 — higher, > 10 µg/mL
- B3 — higher, > 10 µg/mL
- B4 — higher, > 10 µg/mL

Molecular target: SARS-CoV-2 early D614G spike pseudovirus
Assay: as above
Description: as §1

B1 and B2 cannot be ordered by “pseudovirus neutralization IC50” value: > 10 µg/mL for the first, > 10 µg/mL for the second.

B3 and B4 cannot be ordered by “pseudovirus neutralization IC50” value: > 10 µg/mL for the first, > 10 µg/mL for the second.

B5 was tested, and the “pseudovirus neutralization IC50” value was > 10 µg/mL.
